Anti-infective test results gathered from many reports (values: NIAID ChemDB through PubChem).

All rows: tests in culture; agent: HIV-1

a–b is a range or a potency band.

| structure | read by | changes | strain | cell line | endpoint | result |
|---|---|---|---|---|---|---|
| COc1ccc(NC(=S)OC(C)C)cc1CC(=O)OC(C)C | syncytia | RT-L100I |  | CEM | EC50 | 2.305 µM |
| COc1ccc2c(c1)C1=C(CC2)C(=O)NCCN1Cc1ccc([N+](=O)[O-])cc1 | p24 |  |  | OM-10.1 | EC50 | 1 µM |
| CCCSC(=Nc1ccc(Cl)c(C(=O)OC(C)C)c1)OC(C)C | syncytia | RT-Y181C |  | CEM | EC50 | >27.78 µM |
| Cc1cc(S(N)(=O)=O)ccc1NC(=O)COc1ccc(Cl)cc1C(=O)c1cc(Cl)cc(C#N)c1 | β-galactosidase | RT-K103N | HXB2 | HeLa + HELA CD4+ | EC50 | <0.01 µM |
| Cc1cc(C)cc(Cc2c(I)c(=O)[nH]c(=O)n2COCc2ccccc2)c1 | p24 / ELISA | K103N/Y181C | A17 | MT-4 | EC50 | 0.091 µM |
| C=C(C)CN1CCNC(=O)c2sc3ccc(OC)cc3c21 | p24 |  |  | OM-10.1 | EC50 | <0.08 µM |
| C=C(c1ccc(C)cc1)c1c(C(C)C)c(=O)[nH]c(=O)n1COCc1ccccc1 | MTT |  | IIIB | MT-4 | EC50 | 4.09 µM |
| Cc1cc(C)cc(C(=O)c2cc(Cl)ccc2OCC(=O)Nc2ccc(S(N)(=O)=O)cc2C)c1 | β-galactosidase | RT-K103N V108I | HXB2 | HeLa + HELA CD4+ | EC50 | <0.01 µM |
| CC(C)OC(=O)c1cc(NC(=S)SC(C)C)ccc1Cl | syncytia | RT-E138K |  | CEM | EC50 | >30.13 µM |
| C[C@H]1[C@H](O)[C@@H](C)/C=C/C=C/C=C/C=C/C=C/C=C/C=C/[C@H](O[C@@H]2O[C@H](C)[C@@H](O)[C@H](N)[C@@H]2O)C[C@@H]2O[C@](O)(C[C@@H](O)C[C@@H](O)CC[C@H](O)[C@@H](O)C[C@@H](O)CC(=O)O[C@H]1C)C[C@H](O)[C@H]2C(=O)O | p24 / RT activity |  | 93IN101 CLADE C R5 (NSI) | PBMC | EC50 | 2.8 µM |
| CC(=O)OCCOC(=O)c1cc(NC(=S)OC(C)C)ccc1Cl | syncytia | RT-V106A |  | CEM | EC50 | >27.79 µM |
| C=C(C)CN1CCNC(=O)c2oc3ccc(OC)cc3c21 | p24 |  |  | OM-10.1 | EC50 | <0.08 µM |
| C=CCOc1cc(NC(=S)OC(C)C)ccc1C#N | syncytia | RT-E138K |  | CEM | EC50 | 2.171 µM |
| Cc1cc(C#N)cc(C(=O)c2cc(Cl)ccc2OCC(=O)Nc2ccc(S(N)(=O)=O)nc2C)c1 | β-galactosidase | RT-G190A | HXB2 | HeLa + HELA CD4+ | EC50 | <0.01 µM |
| COC(=O)c1cc(NC(=S)OC(C)C)ccc1Cl | syncytia | RT-L100I |  | CEM | EC50 | 20.85 µM |
| Cc1cc2cn[nH]c2cc1NC(=O)COc1ccc(Cl)cc1C(=O)c1cccc(C#N)c1 | β-galactosidase | RT-Y188C | HXB2 | HeLa + HELA CD4+ | EC50 | <0.01 µM |
| Cc1ccccc1OC(=O)c1cc(NC(=S)OC(C)C)ccc1Cl | syncytia | RT-Y181C |  | CEM | EC50 | ≥27.48 µM |
| COc1ccc2c(c1)C1=C(CC2)C(=O)NCCN1Cc1cccc(C)c1 | p24 |  |  | OM-10.1 | EC50 | 0.2 µM |
| Cc1ccccc1C(c1c(C)c(=O)[nH]c(=O)n1COCc1ccccc1)C(C)C | MTT |  | IIIB | MT-4 | EC50 | >34.7 µM |
| CSC(=Nc1ccc(Cl)c(C(=O)OC(C)C)c1)OC(C)C | syncytia | RT-Y181C |  | CEM | EC50 | >30.13 µM |
| Cc1cc(S(N)(=O)=O)ccc1NC(=O)COc1ccc(Cl)cc1C(=O)c1cc(F)cc(C(F)(F)F)c1 | β-galactosidase | RT-L100I K103N | HXB2 (RT-K103N G100I) Recombinant | HeLa + HELA CD4+ | EC50 | <0.01 µM |
| Cc1ccc(C(C)(O)c2c(C)c(=O)[nH]c(=O)n2COCc2ccccc2)cc1 | MTT |  | IIIB | MT-4 | EC50 | >141.6 µM |
| Cc1cc(S(N)(=O)=O)ccc1NC(=O)COc1ccc(Cl)cc1C(=O)c1cccc(C#N)c1 | β-galactosidase | RT-G190E | HXB2 | HeLa + HELA CD4+ | EC50 | <0.01 µM |
| COc1ccnc2[nH]cc(C(=O)C(=O)N3C4CC3CN(C(=O)c3ccccc3)C4)c12 | luciferase |  | 6535 | TZM-bl | EC90 | >250 µM |
| CC(C)OC(=O)Oc1cc(NC(=S)OC(C)C)ccc1Cl | syncytia | RT-V106A |  | CEM | EC50 | 10.55 µM |
| Cc1cc(S(N)(=O)=O)ccc1NC(=O)COc1ccc(Cl)cc1C(=O)c1cc(F)cc(C(F)(F)F)c1 | luciferase | RT-V106I Y181C | IIIB | HELA MAGI | EC50 | 0.011 µM |
| Cc1cc(S(N)(=O)=O)ccc1NC(=O)COc1ccc(Cl)cc1C(=O)c1cc(F)cc(F)c1 | β-galactosidase | RT-K103N Y181C | HXB2 (RT-K103N Y181C) Recombinant | HeLa + HELA CD4+ | EC50 | 0.011–0.1 µM |
| C=CCN1CCNC(=O)c2sc3ccc(OC)cc3c21 | p24 |  |  | OM-10.1 | EC50 | <0.08 µM |
| Cc1cc(S(N)(=O)=O)ccc1NC(=O)COc1ccc(Cl)cc1C(=O)c1cc(F)cc(C#N)c1 | β-galactosidase | RT-K103N Y181C | HXB2 (RT-K103N Y181C) Recombinant | HeLa + HELA CD4+ | EC50 | <0.01 µM |
| COc1ccnc2[nH]cc(C(=O)C(=O)N3C4CCCC3CN(C(=O)c3ccccc3)C4)c12 | luciferase |  | 6535 | TZM-bl | EC50 | 0.02 µM |
| CC(C)OC(=S)Nc1ccc(Cl)c(C(=O)O)c1 | syncytia | RT-E138K |  | CEM | EC50 | >36.53 µM |
| COc1ccc2sc3c(c2c1)SCC/C3=N\O | p24 |  |  | OM-10.1 | EC50 | 0.1 µM |
| CC(=O)COc1cc(NC(=S)OC(C)C)ccc1Cl | syncytia | RT-L100I |  | CEM | EC50 | 14.91 µM |
| C=C(c1ccc(Cl)cc1)c1c(C)c(=O)[nH]c(=O)n1COCc1ccccc1 | MTT |  | IIIB | MT-4 | EC50 | >34.49 µM |
| Cc1cc(C#N)cc(C(=O)c2cc(Cl)ccc2OCC(=O)Nc2cnc(S(N)(=O)=O)cc2C)c1 | β-galactosidase | RT-V108I Y181C | HXB2 | HeLa + HELA CD4+ | EC50 | <0.01 µM |
| CC(C)OC(=S)Nc1ccc(Cl)c(C(=O)OCC(F)(F)F)c1 | syncytia | RT-E138K |  | CEM | EC50 | 19.68 µM |

ECn: concentration that inhibits the pathogen or its effect by n%. Lines come from different laboratories, so protocols vary. An empty or dashed field is not shown.